Measured values from several laboratories, pooled; numbers as filed in NIAID ChemDB.

Shared fields: tests in culture; species: Mycobacterium fortuitum; measure: MIC50

Blank or dashed fields: not listed here. a–b is a range or a potency band. Rows are shuffled and stem from different studies. MIC50, MIC90 and the like: level of inhibition, or share of isolates inhibited.

structure,strain or isolate,value
N[C@@H]1CONC1=O,,>128 µg/mL
C[C@H]1c2cccc(O)c2C(O)=C2C(=O)[C@]3(O)C(O)=C(C(N)=O)C(=O)[C@@H](N(C)C)[C@@H]3[C@@H](O)[C@@H]21,10 strains,4 µg/mL
CCn1cc(C(=O)O)c(=O)c2cc(F)c(N3CCNCC3)cc21,,0.5 µg/mL
CCC(C)N1CCN(c2cc(=O)c3nc4c(oc3c2)c2c(=O)c3c(O)c(C)c5c(c34)=C(O)[C@@](C)(O/C=C/[C@H](OC)[C@@H](C)[C@@H](OC(C)=O)[C@H](C)[C@H](O)[C@H](C)[C@@H](O)[C@@H](C)/C=C/C=C(/C)C(=O)N2)O5)CC1,20 strains,25 µg/mL
CC[C@H]1OC(=O)[C@H](C)[C@@H](O[C@H]2C[C@@](C)(OC)[C@@H](O)[C@H](C)O2)[C@H](C)[C@@H](O[C@@H]2O[C@H](C)C[C@H](N(C)C)[C@H]2O)[C@](C)(O)C[C@@H](C)/C(=N\OCOCCOC)[C@H](C)[C@@H](O)[C@]1(C)O,48 strains,64 µg/mL
CCn1cc(C(=O)O)c(=O)c2cc(F)c(N3CCNCC3)nc21,19 strains,0.5 µg/mL
CO[C@H]1/C=C/O[C@@]2(C)Oc3c(C)c(O)c4c(O)c(c(/C=N/N5CCN(C)CC5)c(O)c4c3C2=O)NC(=O)/C(C)=C\C=C\[C@H](C)[C@H](O)[C@@H](C)[C@@H](O)[C@@H](C)[C@H](OC(C)=O)[C@@H]1C,20 strains,50 µg/mL
CC1CN(c2cc3c(cc2F)c(=O)c(C(=O)O)cn3-c2ccc(F)cc2F)CCN1,19 strains,0.125 µg/mL
CN[C@@H]1[C@H](O)[C@H](NC)[C@H]2O[C@@]3(O)C(=O)C[C@@H](C)O[C@H]3O[C@@H]2[C@H]1O,31 isolates,>64 µg/mL
NC[C@H]1O[C@H](O[C@H]2[C@H](O)[C@@H](O[C@H]3O[C@H](CO)[C@@H](O)[C@H](N)[C@H]3O)[C@H](N)C[C@@H]2N)[C@H](N)C[C@@H]1O,18 strains,16 µg/mL
CCn1cc(C(=O)O)c(=O)c2cc(F)c(-n3cccc3)cc21,19 strains,32 µg/mL
CC[C@H]1OC(=O)[C@H](C)[C@@H](O[C@H]2C[C@@](C)(OC)[C@@H](O)[C@H](C)O2)[C@H](C)[C@@H](O[C@@H]2O[C@H](C)C[C@H](N(C)C)[C@H]2O)[C@](C)(OC)C[C@@H](C)C(=O)[C@H](C)[C@@H](O)[C@]1(C)O,48 strains,16 µg/mL
CC1COc2c(N3CCN(C)CC3)c(F)cc3c(=O)c(C(=O)O)cn1c23,,0.2–1.2 µg/mL
CO[C@H]1/C=C/O[C@@]2(C)Oc3c(C)c(O)c4c(O)c(c(/C=N/N5CCN(C)CC5)c(O)c4c3C2=O)NC(=O)/C(C)=C\C=C\[C@H](C)[C@H](O)[C@@H](C)[C@@H](O)[C@@H](C)[C@H](OC(C)=O)[C@@H]1C,,>8 µg/mL
CN[C@@H]1[C@@H](O)[C@@H](O[C@@H]2[C@@H](O)[C@H](O[C@H]3O[C@H](CN)CC[C@H]3N)[C@@H](N)C[C@H]2N)OC[C@]1(C)O,31 isolates,8 µg/mL
CO[C@@]1(NC(=O)Cc2cccs2)C(=O)N2C(C(=O)O)=C(COC(N)=O)CS[C@@H]21,18 strains,32 µg/mL
CNn1cc(C(=O)O)c(=O)c2cc(F)c(N3CCN(C)CC3)cc21,19 strains,1 µg/mL
NCC[C@H](O)C(=O)N[C@@H]1C[C@H](N)[C@@H](O[C@H]2O[C@H](CN)[C@@H](O)[C@H](O)[C@H]2O)[C@H](O)[C@H]1O[C@H]1O[C@H](CO)[C@@H](O)[C@H](N)[C@H]1O,,2 µg/mL
NC1CCN(c2nc3c(cc2F)c(=O)c(C(=O)O)cn3-c2ccc(F)cc2F)C1,25 isolates,4 µg/mL
C[C@H]1c2cccc(O)c2C(O)=C2C(=O)[C@]3(O)C(O)=C(C(N)=O)C(=O)[C@@H](N(C)C)[C@@H]3[C@@H](O)[C@@H]21,18 strains,8 µg/mL

Repeating the final 2 entries:

structure,strain or isolate,value
NC1CCN(c2nc3c(cc2F)c(=O)c(C(=O)O)cn3-c2ccc(F)cc2F)C1,25 isolates,4 µg/mL
C[C@H]1c2cccc(O)c2C(O)=C2C(=O)[C@]3(O)C(O)=C(C(N)=O)C(=O)[C@@H](N(C)C)[C@@H]3[C@@H](O)[C@@H]21,18 strains,8 µg/mL